{
  "source": "paper PMC6848382",
  "about": "“Characterization of the Bioactivity and Mechanism of Bactenecin Derivatives Against Food-Pathogens” (Frontiers in Microbiology, 2019)",
  "system": "12 typical food-pathogens",
  "details": "ratio of MHC to GM",
  "note": "No end group written: not given here.",
  "data": [
    {"substance": "RKRRIVVIRRKR-NH2 [K2R3R10K11]", "values": [
      {"measurement": "SI (selectivity index)", "value": 2.7}
    ]},
    {"substance": "RKWRIVVIRVRR-NH2 [K2W3V10R11]", "values": [
      {"measurement": "SI (selectivity index)", "value": 26.9}
    ]},
    {"substance": "RRFRIVVIRWLR-NH2 [R2F3W10L11]", "values": [
      {"measurement": "SI (selectivity index)", "value": 4.0}
    ]},
    {"substance": "RRWRIVVIRWRR-NH2 [R2W3W10R11]", "values": [
      {"measurement": "SI (selectivity index)", "value": 4.2}
    ]},
    {"substance": "RWKRIVVIRKRR-NH2 [W2K3K10R11]", "values": [
      {"measurement": "SI (selectivity index)", "value": 3.0}
    ]},
    {"substance": "RWRRIVVIRVRR-NH2 [W2R3V10R11]", "values": [
      {"measurement": "SI (selectivity index)", "value": 21.5}
    ]}
  ]
}
